Measured values from several laboratories, pooled; numbers as filed in NIAID ChemDB.

All rows: growth or infection tests; agent: HIV-1; read-out: EC50

ECn is the concentration giving n% inhibition of infection, replication or growth. Rows are shuffled and stem from different studies.

{"smiles": "ClC(Cn1ncc2c(NCCc3ccccc3)nc(SCCN3CCOCC3)nc21)c1ccccc1", "value": "33.45 µM"}
{"smiles": "O=C(O)C(=O)/C=C(\\O)c1cc(Cc2ccccc2F)cn(Cc2cccc(F)c2F)c1=O", "cells": "MAGI", "value": "0.8 µM"}
{"smiles": "CCOCn1c(Cc2ccc3ccccc3c2)c(CC)c(=O)[nH]c1=O", "strain or isolate": "LAV", "cells": "CEM", "value": "5.116 µM"}
{"smiles": "CCCCCCCCCCc1nccnc1OCCCCO", "strain or isolate": "IIIB", "cells": "MT-4", "value": ">100 µM"}
{"smiles": "Cc1cn([C@@H]2O[C@H](COC(=O)C(C)C)C3(OS(=O)(=O)C=C3N)[C@H]2O[Si](C)(C)C(C)(C)C)c(=O)n(C)c1=O", "cells": "MT-4", "value": ">10 µM"}
{"smiles": "O=C1Nc2ccc(F)cc2C(C#Cc2cccs2)(C(F)(F)F)O1", "value": "<0.00293 µM"}
{"smiles": "COCCNC(=O)c1c(COC)nc(Nc2ccc(C#N)cc2)nc1Oc1c(C)cc(/C=C/C#N)cc1C", "strain or isolate": "K103N+Y101C", "cells": "MT4 CMV-EGFP", "value": "0.0372 µM"}
{"smiles": "Nc1ccn([C@@H]2O[C@H](CO)[C@@H](F)[C@H]2O)c(=O)n1", "cells": "MT-4", "value": ">20 µM"}
{"smiles": "C=CCCOC1(C(F)(F)F)OC(=O)Nc2ccc(Cl)cc21", "value": "<0.01368 µM"}
{"smiles": "CCOCn1c(Cc2ccc3ccccc3c2)c(C)c(=O)[nH]c1=O", "strain or isolate": "LAV", "cells": "CEM", "value": "4.412 µM"}
{"smiles": "N#Cc1cc(Cl)cc(Oc2c(Br)ccc(CC(=O)Nc3ccc(S(N)(=O)=O)cc3Cl)c2F)c1", "cells": "MT-4", "changes": "Y181I/M230L", "value": "0.012 µM"}
{"smiles": "COCc1nc(Nc2ccc(C#N)cc2)nc(Nc2c(C)cc(/C=C/C#N)cc2C)c1C(=O)NCCc1cccs1", "strain or isolate": "K103N+Y101C", "cells": "MT4 CMV-EGFP", "value": "0.195 µM"}
{"smiles": "O=C1Nc2ccc(F)c(F)c2C(C#Cc2ccco2)(C(F)(F)F)O1", "changes": "RT-K103N", "value": "<0.0593 µM"}
{"smiles": "O=C(O)C(=O)/C=C(\\O)c1cc(Cc2ccc(F)cc2F)cn(Cc2ccccc2)c1=O", "cells": "MAGI", "value": "0.8 µM"}
{"smiles": "COCn1c(Cc2cccc3ccccc23)c(C(C)C)c(=O)[nH]c1=O", "strain or isolate": "LAV", "cells": "CEM", "value": "0.13 µM"}
{"smiles": "Cc1cn([C@@H]2O[C@H](CO)[C@@H](F)[C@H]2O)c(=O)[nH]c1=O", "cells": "MT-4", "value": ">500 µM"}
{"smiles": "C/C=C/COC1(C(F)(F)F)OC(=O)Nc2ccc(Cl)cc21", "changes": "RT-K103N", "value": "<0.404 µM"}
{"smiles": "O=C(O)C(=O)/C=C(\\O)c1cc(Cc2ccc(F)cc2F)cn(Cc2ccc(F)cc2F)c1=O", "cells": "MAGI", "value": "0.3 µM"}
{"smiles": "Nc1ccn([C@H]2CC[C@@H](CO)O2)c(=O)n1", "strain or isolate": "SK1", "cells": "CEM + CEM-SS", "value": "0.0254 µM"}
{"smiles": "Cc1c(Cc2cccc3ccccc23)n(COCCO)c(=O)[nH]c1=O", "strain or isolate": "LAV", "cells": "MT-4", "value": "0.5 µM"}
{"smiles": "CC(C)=CCOC[C@H]1O[C@@H](n2cc(C)c(=O)n(C)c2=O)[C@H](O[Si](C)(C)C(C)(C)C)C12OS(=O)(=O)C=C2N", "cells": "CEM + CEM/0", "value": "8.5 ± 2.1 µM"}
{"smiles": "O=C(CCCN1C(=O)S/C(=C/c2cccs2)C1=O)Nc1nc2ccccc2s1", "value": ">100 µM"}
{"smiles": "CCc1c(Cc2ccc3ccccc3c2)n(COC)c(=O)[nH]c1=O", "strain or isolate": "LAV", "cells": "MT-4", "value": "≥8.268 µM"}
{"smiles": "COCc1nc(Nc2ccc(C#N)cc2)nc(Nc2c(C)cc(/C=C/C#N)cc2C)c1C(=O)N(C)OC", "strain or isolate": "IIIB", "cells": "MT4 CMV-EGFP", "value": "0.00191 µM"}
{"smiles": "CCc1c(C(=O)c2cc(C)cc(C)c2)n(CC2CC=CC2)c(=O)[nH]c1=O", "strain or isolate": "IIIB", "value": "0.0017 µM"}
{"smiles": "CC(=O)OC[C@H]1O[C@@H](n2cc(C)c(=O)n(C)c2=O)[C@H](O[Si](C)(C)C(C)(C)C)C12OS(=O)(=O)C=C2N", "cells": "CEM + CEM/0", "value": "17.5 ± 3.5 µM"}
{"smiles": "ClC(Cn1ncc2c(NCc3ccccc3)nc(SC3CCCC3)nc21)c1ccccc1", "value": ">100 µM"}
{"smiles": "O=C1Nc2ccc(Cl)cc2C(C#Cc2cccnc2)(C(F)(F)F)O1", "changes": "RT-K103N", "value": "<1.11 µM"}
{"smiles": "CSc1nc(NCc2ccccc2Cl)c2cnn(CC(Cl)c3ccc(Br)cc3)c2n1", "value": "21.09 µM"}
{"smiles": "COCc1nc(Nc2ccc(C#N)cc2)nc(Nc2c(C)cc(/C=C/C#N)cc2C)c1C(=O)NCCN(C)C", "strain or isolate": "IIIB", "cells": "MT4 CMV-EGFP", "value": "0.00389 µM"}
{"smiles": "CCCCOC1(C(F)(F)F)OC(=O)Nc2ccc(Cl)cc21", "value": "<0.01019 µM"}
{"smiles": "CN(C(=O)[C@H](Cc1ccccc1)NC(=O)Cc1c[nH]c2ccc(Cl)cc12)c1ccccc1", "strain or isolate": "VSV-G", "cells": "HeLa", "value": "0.39 µM"}
{"smiles": "O=C(O)C(=O)/C=C(\\O)c1cc(Cc2cccc(Cl)c2)cn(Cc2cccc(Cl)c2F)c1=O", "cells": "MAGI", "value": "1.4 µM"}
{"smiles": "C=CCOC(=O)OC[C@H]1O[C@@H](n2cc(C)c(=O)n(C)c2=O)[C@H](O[Si](C)(C)C(C)(C)C)C12OS(=O)(=O)C=C2N", "cells": "CEM + CEM/0", "value": ">10 µM"}
{"smiles": "CCc1c(Cc2ccc3ccccc3c2)n(COCc2ccccc2)c(=O)[nH]c1=O", "strain or isolate": "LAV", "cells": "MT-4", "value": "1.449 µM"}
{"smiles": "Cc1cn([C@@H]2O[C@H](CN3CCN(Cc4ccccc4)CC3)C3(OS(=O)(=O)C=C3N)[C@H]2O[Si](C)(C)C(C)(C)C)c(=O)n(C)c1=O", "cells": "MT-4", "value": ">10 µM"}
{"smiles": "CCc1c(Cc2cccc3ccccc23)n(COC)c(=O)[nH]c1=O", "strain or isolate": "LAV", "cells": "CEM", "value": "0.494 µM"}
{"smiles": "Cc1cccc(Cc2cc(/C(O)=C/C(=O)C(=O)O)c(=O)n(Cc3cccc(Cl)c3F)c2)c1", "cells": "MAGI", "value": "1.4 µM"}
{"smiles": "COCc1nc(Nc2ccc(C#N)cc2)nc(Nc2c(C)cc(/C=C/C#N)cc2C)c1C(=O)NCCN1CCOCC1", "strain or isolate": "K103N+Y101C", "cells": "MT4 CMV-EGFP", "value": "0.0794 µM"}
{"smiles": "CCCCCCCCCCc1nccn(C(CO)OC(CO)CO)c1=O", "strain or isolate": "LAI", "cells": "CEM + CEM-SS", "value": ">100 µM"}
{"smiles": "O=C(O)C(=O)/C=C(\\O)c1cc(Cc2ccccc2)cn(Cc2cccc(F)c2F)c1=O", "cells": "MAGI", "value": "0.9 µM"}
{"smiles": "COCc1nc(Nc2ccc(C#N)cc2)nc(Nc2c(C)cc(/C=C/C#N)cc2C)c1C(=O)NCc1cccs1", "strain or isolate": "MDR", "cells": "MT4 CMV-EGFP", "value": "0.38 µM"}
{"smiles": "CC(C)=CCOC1(C(F)(F)F)OC(=O)Nc2ccc(Cl)cc21", "changes": "RT-K103N", "value": "<0.083 µM"}

4 of the rows above, restated:

{"smiles": "CC(C)=CCOC1(C(F)(F)F)OC(=O)Nc2ccc(Cl)cc21", "changes": "RT-K103N", "value": "<0.083 µM"}
{"smiles": "O=C(O)C(=O)/C=C(\\O)c1cc(Cc2ccc(F)cc2F)cn(Cc2ccccc2)c1=O", "cells": "MAGI", "value": "0.8 µM"}
{"smiles": "C=CCCOC1(C(F)(F)F)OC(=O)Nc2ccc(Cl)cc21", "value": "<0.01368 µM"}
{"smiles": "CCc1c(Cc2ccc3ccccc3c2)n(COC)c(=O)[nH]c1=O", "strain or isolate": "LAV", "cells": "MT-4", "value": "≥8.268 µM"}